Literature values as cited in PMC4621754, “Parasitic diarrheal disease: drug development and targets” (Frontiers in Microbiology, 2015).

Tested on: E. intestinalis
Conditions: in water, as disinfectant; ref John et al., 2005

Question: Which “killing of E. intestinalis” value does the source give for chlorine here?
Answer: kills
